This passage reports activity change, negative = inhibition results from PubChem BioAssay AID585 (National Center for Advancing Translational Sciences (NCATS), 2007).

Amino acid sequences for entries named in this document (tags omitted).
UniProt P00811, whole entry: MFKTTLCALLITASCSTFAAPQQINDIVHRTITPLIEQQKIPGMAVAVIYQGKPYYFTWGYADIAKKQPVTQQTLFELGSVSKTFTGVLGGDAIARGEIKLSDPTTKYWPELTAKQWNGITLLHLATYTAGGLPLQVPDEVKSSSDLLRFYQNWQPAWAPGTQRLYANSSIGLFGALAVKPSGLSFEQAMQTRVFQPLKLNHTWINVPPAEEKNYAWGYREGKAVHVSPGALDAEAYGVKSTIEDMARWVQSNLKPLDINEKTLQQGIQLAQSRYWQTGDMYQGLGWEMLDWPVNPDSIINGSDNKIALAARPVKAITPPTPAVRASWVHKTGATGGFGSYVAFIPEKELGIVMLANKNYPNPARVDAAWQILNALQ

Each structure is given as a SMILES string. The list shows a part of the results, in another mix than the full data. The source made the active and inactive calls. The call rests on the fitted dose curve.

This assay concerns the target Beta-lactamase (Escherichia coli (strain K12)) (UniProt P00811). The experiment in a line: Promiscuous and Specific Inhibitors of AmpC Beta-Lactamase (assay without detergent). Further: % of control where 0% means no effect. The settings on record: AmpC nitrocefin hydrolysis, absorbance 480 nm, no detergent; at 28.7 µM (top of the series). As to the method:
NIH Molecular Libraries Screening Centers Network [MLSCN]
NIH Chemical Genomics Center [NCGC]
PI Name: Shoichet, Brian K.
This aggregation profiling approach exploits the sensitivity of aggregate formation to detergent. Inhibition of b-lactamase is measured in the presence and absence of 0.01% Triton X-100. See Pubchem assay "Promiscuous and Specific Inhibitors of AmpC Beta-Lactamase (assay with detergent)" for related screen. Compounds that inhibit only in the absence of detergent are considered likely promiscuous aggregators.
A screen of 1,030 compounds was performed in Brian Shoichet's lab in 96-well format. AmpC activity was measured by following the absorbance at 480 nm. Nitrocefin is a chromogenic substrate: while nitrocefin is yellow (lmax 390 nm), the product of its hydrolysis is red (lmax 486 nm, 17,000 M-1). AmpC beta lactamase was provided by Brian Shoichet and Brian Feng, UCSF.
NCGC Assay Protocol Summary:
20 mM phosphate buffer, pH 7.0
Triton X-100: No Detergent screen: 0.0001%, Detergent screen: 0.01%.
Buffer in columns 3 and 4 as negative control (no enzyme).
5.3 nM AmpC in columns 1, 2, 5-48. […]
Six uL of reagents were dispensed to 1536-well Greiner black clear bottom plates. […] The plates were immediately transferred to and read every 20 seconds for 4 min on ViewLux (Perkin-Elmer) High-throughput CCD imager using 480 nm absorbance protocol. […]
With `c1nnnn1CCn1cnnn1`, the activity change, negative = inhibition is inactive: -1.4%.
`CN(C(=O)Cc1ccc(Cl)c(Cl)c1)[C@H]1CCCC[C@@H]1N1CCCC1`: the activity change, negative = inhibition was inactive: 11.8%.
